A mixed list of measured activities; the numbers were collected in NIAID ChemDB.

Shared fields: tests in culture; agent: Cryptococcus neoformans

Blank or dashed fields: not listed here.

| smiles | method | read-out | strain | result |
|---|---|---|---|---|
| CCC(C)n1ncn(-c2ccc(N3CCN(c4ccc(OC[C@H]5CO[C@](Cn6cncn6)(c6ccc(Cl)cc6Cl)O5)cc4)CC3)cc2)c1=O |  | MIC | TIMM1740 | 0.06 µg/mL |
| COC1CC2CCC(C)C(O)(O2)C(=O)C(=O)N2CCCCC2C(=O)OC(C(C)CC2CCC(O)C(OC)C2)CC(=O)C(C)/C=C(\C)[C@@](O)(c2ccc(C)s2)C(OC)C(=O)C(C)CC(C)/C=C/C=C/C=C/1C |  | MIC | WILD TYPE | >100 µg/mL |
| CCCCCCCCOc1ccc(C(=O)NC2C[C@@H](O)[C@@H](O)NC(=O)C3[C@@H](O)[C@@H](C)CN3C(=O)C(C(C)O)NC(=O)C([C@H](O)[C@@H](O)c3ccc(O)cc3)NC(=O)C3C[C@@H](O)CN3C(=O)C(C(C)O)NC2=O)cc1 |  | MIC | MY1051 | >128 µg/mL |
| CCCCC[C@@H]1OCO[C@@]2(C)/C=C(C)/C=C/C(=O)O[C@H]([C@@H](C)[C@@H](O)[C@H](C)[C@@]3(O)C[C@@H](O[C@H]4C[C@@H](O)[C@H](O)[C@@H](C)O4)[C@H](C)[C@@H](C)O3)[C@@H](OC)/C=C/C=C(\C)C[C@H]1[C@@H]2O |  | MIC | F-10 | 0.39 µg/mL |
| COc1cc(/C=C2\SC(=S)NC2=O)ccc1OCC(O)(Cn1cncn1)c1ccc(F)cc1F | broth dilution | MIC50 | ATCC 34664 | 16 µg/mL |
| COc1cc2oc3cc(O)cc(O)c3c(=O)c2c2c1OC(C)(C)C=C2 | broth dilution | MIC100 |  | >64 µg/mL |
| C[C@H](N1CCN(c2ccc(-n3cccn3)cc2)C1=O)[C@@](O)(Cn1cncn1)c1ccc(F)cc1F |  | MIC | TIMM1855 | 0.06 µg/mL |
| COC12OC1(C13OC1(OC)C(=O)c1cc4cc(C)oc(=O)c4c(O)c1C3O)C(O)c1c(cc3cc(C)oc(=O)c3c1O)C2=O |  | MIC | ATCC90112 | 12.5 µg/mL |
| COC1CC2CCC(C)C(O)(O2)C(O)C(O)N2CCCCC2C(=O)OC(C(C)CC2CCC(O)C(OC)C2)CC(=O)C(C)/C=C(\C)C(O)C(OC)C(=O)C(C)CC(C)/C=C/C=C/C=C/1C |  | MFC | WILD TYPE | 3.12 µg/mL |
| CC(N1CCN(c2ccc(-n3cncn3)cc2)C1=O)C(O)(Cn1cncn1)c1ccc(F)cc1F |  | MIC | TIMM1855 | 0.13 µg/mL |
| CCCCCCCC/C=C/CC/C=C/[C@H]1C[C@H]([C@](O)(CC(=O)O[C@@H](C(=O)O)[C@H](CC(=O)O)C(=O)O)C(=O)O)C(=O)O1 |  | MIC |  | 6.8 µM |
| C[C@@H](c1ncncc1F)[C@](O)(Cn1cncn1)c1ccc(F)cc1F |  | MIC | ATCC 24067 | 0.015 µg/mL |
| CCCCCCCC(O)CC(=O)CCc1ccc(O)c(OC)c1 |  | MIC |  | 750 µg/mL |
| COc1cc(O)c2c(c1)C(=O)c1c(cc3c(c1O)-c1c(cc(C)c(C(=O)N[C@H](C)C(=O)O)c1O)[C@H](O[C@@H]1O[C@H](C)[C@H](O)[C@H](O[C@@H]4OC[C@@H](O)[C@H](O)[C@H]4O)[C@H]1O)[C@H]3O)C2=O |  | MIC | TIMM1855 | 1.56 µg/mL |
| C[C@H]1[C@H](O)[C@@H](C)/C=C/C=C/C=C/C=C/C=C/C=C/C=C/[C@H](O[C@@H]2O[C@H](C)[C@@H](O)[C@H](N)[C@@H]2O)C[C@@H]2O[C@](O)(C[C@@H](O)C[C@@H](O)CC[C@H](O)[C@@H](O)C[C@@H](O)CC(=O)O[C@H]1C)C[C@H](O)[C@H]2C(=O)O |  | MIC90 |  | 0.1 µg/mL |
| O=C1O/C(=C\c2ccc(OCC(O)(Cn3cncn3)c3ccc(F)cc3F)cc2)C(c2ccc(F)cc2F)=C1c1ccc(Cl)cc1 | broth dilution | MIC50 | ATCC 34664 | 4 µg/mL |
| C[C@H]1[C@H](O)[C@@H](C)/C=C/C=C/C=C/C=C/C=C/C=C/C=C/[C@H](O[C@@H]2O[C@H](C)[C@@H](O)[C@H](N)[C@@H]2O)C[C@@H]2O[C@](O)(C[C@@H](O)C[C@@H](O)CC[C@H](O)[C@@H](O)C[C@@H](O)CC(=O)O[C@H]1C)C[C@H](O)[C@H]2C(=O)O |  | MIC90 | 19 strains | 0.5 µg/mL |
| CC(N1CCN(c2ccc(-n3cnnn3)cc2)C1=O)C(O)(Cn1cncn1)c1ccc(F)cc1F |  | MIC | TIMM1740 | 0.03 µg/mL |
| CCCC(O)C/C=C\C=C\C(=O)OC[C@H]1O[C@@H](O[C@@H]2[C@H](OC(=O)/C=C/C=C/CC(O)/C(C)=C/C=C/CCC(C)CC)[C@@H](O)[C@]3(OCc4cc(O)cc(O)c43)O[C@@H]2CO)[C@H](O)[C@@H](O)[C@H]1O |  | MIC | MY1051 | >128 µg/mL |
| C=CCC(Nc1ccc(OC)cc1)c1ccncc1 |  | MIC100 | ATCC 32264 | 250 µg/mL |
| C[C@@H]1[C@H](O)[C@@H](C)/C=C/C=C/C=C/C=C/C=C/C=C/C=C/[C@H](O[C@@H]2O[C@H](C)[C@@H](O)[C@H](N)[C@@H]2O)C[C@@H]2O[C@](O)(C[C@@H](O)C[C@@H](O)[C@H](O)CC[C@@H](O)C[C@@H](O)CC(=O)O[C@H]1C)C[C@H](O)[C@H]2C(=O)O | broth dilution | MIC100 |  | 1.63 µg/mL |
| CCS(=O)(=O)C(F)(F)C(O)(Cn1cncn1)c1ccc(F)cc1F |  | MIC | IFM 46531 | 1 µg/mL |
| O=c1c2cc(O)ccc2oc2cccc(O)c12 | broth dilution | MIC |  | >64 µg/mL |
| O=C1OCC(c2ccccc2)=C1c1ccc(OCC(O)(Cn2cncn2)c2ccc(F)cc2F)cc1 | broth dilution | MIC50 | ATCC 34664 | 4 µg/mL |
| COc1cc(NC(C)CCCN)c2nc(C(C)(C)C)ccc2c1Oc1cccc(C(F)(F)F)c1 |  | MIC |  | 5 µg/mL |
| CCC(C)n1ncn(-c2ccc(N3CCN(c4ccc(OC[C@H]5CO[C@](Cn6cncn6)(c6ccc(Cl)cc6Cl)O5)cc4)CC3)cc2)c1=O |  | Geometric mean MIC | 12 strains | 0.114 µg/mL |
| CN[C@H]1CC[C@@H](c2ccc(Cl)c(Cl)c2)c2ccccc21 | broth dilution | MIC90 | 123.96 | 4 µg/mL |
| CC(N1CCN(c2ccc(-n3ccnn3)cc2)C1=O)C(O)(Cn1cncn1)c1ccc(F)cc1F |  | MIC | TIMM1855 | 0.13 µg/mL |

Repeating the final 2 entries:

smiles	method	read-out	strain	result
CN[C@H]1CC[C@@H](c2ccc(Cl)c(Cl)c2)c2ccccc21	broth dilution	MIC90	123.96	4 µg/mL
CC(N1CCN(c2ccc(-n3ccnn3)cc2)C1=O)C(O)(Cn1cncn1)c1ccc(F)cc1F		MIC	TIMM1855	0.13 µg/mL

Neighbouring rows are from separate reports. A number after MIC or MFC names an inhibition level or a share of isolates.